Pooled drug test results. Numbers come from NIAID ChemDB, via PubChem.

Shared fields: growth or infection tests; species: Mycobacterium tuberculosis

Inhibition is in % at the dose shown (toxicity tests: loss of growth or viability).

| SMILES | read-out | dose | method | strain | conditions | value |
|---|---|---|---|---|---|---|
| Cc1cc(C(=O)/C=C/c2ccco2)ccc1O | MIC |  |  | H37Rv |  | >6.25 µg/mL |
| CC1=C(C(=O)Nc2cc(C)ccc2C)C(c2ccc(O)cc2)C(C(=O)Nc2cc(C)ccc2C)=C(C)N1 | MIC |  |  | H37Rv |  | >6.25 µg/mL |
| COc1ccc(C2CC(c3ccc(O)c(C)c3)=NN2)cc1 | inhibition | 6.25 µg/mL |  | H37Rv |  | 76% |
| CC(C)OC(=O)c1ccc(N)cc1O | MIC |  |  | H37Rv |  | 20 µg/mL |
| CC(C)[C@H]1CO[C@]23CC[C@H](OC(c4ccc(C(F)(F)F)cc4)c4ccc(C(F)(F)F)cc4)C[C@H]2CCC(=O)N13 | MIC |  | resazurin |  |  | <0.5 µM |
| O=C(OCc1ccccc1)N1CCC[C@H]1c1cnc(-c2ccc([N+](=O)[O-])cc2)[nH]1 | MIC |  |  | My 331/88 | 21 d | 32 µM |
| Nc1ncnc2c([C@@H]3O[C@H](CO)[C@@H](O)[C@H]3O)nsc12 | inhibition | 6.25 µg/mL | resazurin | H37Rv |  | -10% |
| Cc1cc(O)c2c(c1)C(=O)C(c1c(C)cc3c(c1O)C(=O)C=CC3=O)=CC2=O | MIC |  |  | Isoniazid/rifampicin-resistant |  | 0.1 µg/mL |
| COC(=O)c1ccc(N)cc1O | MIC |  |  | H37Rv |  | 20 µg/mL |
| NC(=S)N/N=C/c1cn(Cc2ccccc2)c2ccccc12 | MIC |  | resazurin | H37Rv |  | 1.56 µg/mL |
| COc1cccc2c(Nc3ccc(S(=O)(=O)c4ccc(NC(C)=O)cc4)cc3)ccnc12 | MIC |  |  | Strain 1 (MDR) |  | 1 µg/mL |
| CC(C)C[C@@H]1NC(=O)[C@H](Cc2c[nH]c3ccccc23)NC(=O)[C@@H](CCCN=C(N)N)NC(=O)[C@H](CC(N)=O)NC(=O)[C@H](C(C)C)NC(=O)[C@@H](CC(C)C)NC1=O | MIC90 |  | turbidity | H37Ra |  | 0.33 µM |
| Oc1cccc2c1[C@H](O)[C@H]1O[C@H]1C21Oc2cccc3cccc(c23)O1 | MIC |  |  |  |  | 50 µg/mL |
| COC1=CC(=O)C(C)=CC1=O | MIC |  | BACTEC | H37Rv |  | 32 µg/mL |
| CC1=C(C(=O)Nc2ccccc2)C(c2cccc([N+](=O)[O-])c2)C(C(=O)Nc2ccc(Cl)cc2)=C(C)N1 | MIC |  |  | H37Rv |  | >6.25 µg/mL |
| O=C(O)CC[C@H](NC(=O)c1ccc(NCc2cnc3[nH]c(=O)[nH]c(=O)c3n2)cc1)C(=O)O | inhibition | 6.25 µg/mL | BACTEC | H37Rv |  | 0% |
| C[C@H](NC(=O)OCc1ccccc1)c1cnc(-c2ccccc2)[nH]1 | MIC |  |  | My 331/88 | 14 d | 125 µM |
| Clc1c2c(c(Cl)c3c1=Nc1ncccc1O3)=Nc1ncccc1O2 | MIC bound |  | BACTEC | H37Rv |  | >12.5 µg/mL |
| C[C@@H](NC(=O)OCc1ccccc1)c1cnc(-c2ccccc2)[nH]1 | MIC |  |  | My 331/88 | 14 d | 125 µM |
| CC(C)CCC[C@@H](C)[C@H]1CC[C@H]2[C@]3(C)CC[C@H]4C[C@@H](CCC=C(c5cc(Cl)c(O)c(C(=O)O)c5)c5cc(Cl)c(O)c(C(=O)O)c5)CC[C@]4(C)[C@H]3CC[C@@]21C | MIC bound |  | BACTEC | H37Rv |  | >12.5 µg/mL |
| CC(C)[C@H]1CO[C@]23CC[C@H](N(Cc4ccc(C(F)(F)F)cc4)CC4CC4)C[C@H]2CCC(=O)N13 | MIC |  | resazurin |  |  | <0.5 µM |
| Nc1nc2ccc(COc3ccc(C(=O)NC(CCC(=O)O)C(=O)O)cc3)cc2c(=O)[nH]1 | MIC bound |  | BACTEC | H37Rv |  | >12.5 µg/mL |
| C=C(CCC(C)[C@H]1CC[C@@]2(C)[C@@H]3CC[C@H]4C(C)(C)[C@@H](O)CCC45CC35CC[C@]12C)C(C)C | MIC |  |  | H37Rv |  | 64 µg/mL |
| O=[N+]([O-])c1ccc(C2Nc3cc(Cl)c(Cl)cc3S(=O)(=O)N2O)cc1 | MIC bound |  | BACTEC | H37Rv |  | >6.25 µg/mL |
| CC1=C(C(=O)Nc2ccccc2C)C(c2ccccc2Cl)C(C(=O)Nc2ccccc2C)=C(C)N1 | MIC |  |  | H37Rv |  | >12.5 µg/mL |
| CC(C)=CCC[C@H](C)[C@@H]1CC[C@]2(C)[C@H]3CCC(=C(C)C)[C@@H](CCCO)[C@]3(C)CC[C@@]12C | MIC |  |  | H37Rv |  | >64 µg/mL |
| O=C1c2ccccc2C(=O)c2c1cc(O)c(O)c2O | MIC |  | BACTEC | H37Rv |  | 128 µg/mL |
| C=C1CC[C@@]2(C)[C@@H]([C@@H]1C)[C@H]1CCC3[C@@]4(C)CC[C@H](O)C(C)(C)[C@@H]4CC[C@@]3(C)[C@]1(C)C[C@@H]2O | MIC |  |  | H37Rv |  | 16 µg/mL |
| S=C(S)N1CCCC1 | MIC |  |  | RMP-R |  | 0.4 µg/mL |
| O=C1O[C@H]2C(O)O[C@@H]3COC(=O)c4cc(O)c(O)c(O)c4-c4c(O)cc5oc(=O)c6c(c(O)c(O)c7oc(=O)c4c5c76)-c4c(cc(O)c(O)c4O)C(=O)OC3[C@@H]2OC(=O)c2cc(O)c(O)c(O)c2-c2c1cc(O)c(O)c2O | MIC |  |  |  |  | 0.6 µg/mL |
| Oc1cc(CCCc2ccccc2)ccc1Oc1ccc(Cl)cc1Cl | MIC |  |  | Clinical isolate 5071 |  | 13 µM |
| CC(C)[C@H]1CO[C@]23CC[C@H](N(Cc4ccc(C(F)(F)F)cc4)C[C@@H]4CCCN4C(=O)OC(C)(C)C)C[C@H]2CCC(=O)N13 | MIC |  | resazurin |  |  | <0.5 µM |
| CCC(=O)c1ccc2c(c1)N(CCCN1CCN(CCO)CC1)c1ccccc1S2.O=C(O)/C=C\C(=O)O.O=C(O)/C=C\C(=O)O | MIC bound |  | BACTEC | H37Rv |  | >12.5 µg/mL |
| O=C(NNc1cc(-c2ccccc2)nc2ccccc12)c1ccncc1 | MIC |  |  | Strain 1 (MDR) |  | 1 µg/mL |
| COc1ccc(NC(=S)Nc2ccc(OC)cc2)cc1 | inhibition | 0.5 µM | BACTEC |  |  | 8% |
| Cc1cccc(OC(=O)c2ccc(NC(=O)CCC(=O)O)cc2O)c1 | MIC |  |  | H37Rv |  | 0.5 µg/mL |
| C[C@H](NC(=O)OCc1ccccc1)c1cnc(-c2ccc([N+](=O)[O-])cc2)[nH]1 | MIC |  |  | My 331/88 | 21 d | >125 µM |
| N#Cc1nc(CC(=O)c2ccccc2Cl)c(CC(=O)c2ccccc2Cl)nc1C#N | inhibition | 12.5 µg/mL | BACTEC | H37Rv |  | 58% |
| Cc1cccc(OC(=O)c2ccc(N)cc2O)c1 | MIC |  |  | H37Rv |  | 0.0313 µg/mL |
| O=[N+]([O-])c1ccc2[nH]c(=S)[nH]c2c1 | inhibition | 6.25 µg/mL | resazurin | H37Rv |  | -56% |
| CCn1cc(C(=O)O)c(=O)c2cc(F)c(N3CCN(C)CC3)cc21 | MIC |  |  | 36 strains |  | 0.3–2.5 µg/mL |
| Nc1ccc(S(=O)(=O)Nc2ccnn2-c2ccccc2)cc1 | MIC |  |  | Strain 1 (MDR) |  | 0.5 µg/mL |
| COC(=O)C(=O)C(C(=O)c1ccc(F)cc1)c1nc2n(c1O)C(=N)N=N2 | MIC bound |  | resazurin | H37Rv |  | >6.25 µg/mL |
| CC(C)[C@H]1CO[C@]23CC[C@H](N(Cc4ccc(C(F)(F)F)cc4)CC4CC4(F)F)C[C@H]2CCC(=O)N13 | MIC |  | resazurin |  |  | <0.5 µM |
| COc1cc(C2C(C(=O)Nc3ccccc3)=C(C)NC(C)=C2C(=O)Nc2ccccc2)cc(OC)c1OC | MIC |  |  | H37Rv |  | >12.5 µg/mL |
| CC(C)[C@H]1CO[C@]23CC[C@H](NCc4cc(C(F)(F)F)nc5cc(F)ccc45)C[C@H]2CCC(=O)N13 | MIC |  | resazurin |  |  | <0.5 µM |
| CC1=C(C(=O)Nc2ccc(F)c(Cl)c2)C(c2ccccc2[N+](=O)[O-])C(C(=O)Nc2ccc(F)c(Cl)c2)=C(C)N1 | MIC |  |  | H37Rv |  | >6.25 µg/mL |
| CC(C)[C@H]1CO[C@]23CC[C@H](N(Cc4ccc(C(F)(F)F)nc4)CC4CN(C(=O)OC(C)(C)C)C4)C[C@H]2CCC(=O)N13 | MIC |  | resazurin |  |  | 0.5–5 µM |
| CC1[C@@H](CO)O[C@@H](O[C@H](CCCCCCCCCC(=O)CCCCCCCCCCCC[C@@H](O)[C@@H](C)N)[C@@H](N)CO)[C@H](O)[C@H]1O | MIC |  |  |  |  | 10 µg/mL |
| CC1=C(C(=O)Nc2cccc([N+](=O)[O-])c2)C(c2ccccc2)C(C(=O)Nc2cccc([N+](=O)[O-])c2)=C(C)N1 | MIC |  |  | H37Rv |  | >6.25 µg/mL |
| CC12C[C@H]3OC(=O)[C@@H]1COC14OC5([C@H]2C1=O)[C@@](O)(CC[C@H]1[C@H]4CC=C2CC=CC(=O)[C@@]21C)C(=O)O[C@@]35C | MIC |  |  |  |  | >128 µg/mL |
| CC(C)[C@H](NC(=O)OCc1ccccc1)c1cnc(-c2ccccc2)[nH]1 | MIC |  |  | My 331/88 | 21 d | 62.5 µM |
| CC(C)C[C@@H]1NC(=O)[C@H](Cc2c[nH]c3ccccc23)NC(=O)[C@@H](CCCN)NC(=O)[C@H](CC(N)=O)NC(=O)[C@H](C(C)C)NC(=O)[C@@H](CC(C)C)NC1=O | MIC90 |  | turbidity | H37Ra |  | 1.1 µM |
| C=C(C)[C@@H]1CC[C@]2(C)CCC3(C)[C@H](CC[C@@H]4[C@@]5(C)CC[C@H](O)C(C)(C)[C@@H]5CC[C@]43C)[C@@H]12 | MIC |  |  | H37Rv |  | >64 µg/mL |
| O=C1NC(=S)NC(=O)C1=Cc1ccc([N+](=O)[O-])o1 | MIC bound |  | BACTEC | H37Rv |  | >12.5 µg/mL |
| CC(C)C[C@@H]1NC(=O)[C@H](Cc2c[nH]c3ccccc23)NC(=O)[C@H](CCCCN)NC(=O)[C@H](CC(N)=O)NC(=O)[C@H](C(C)C)NC(=O)[C@@H](CC(C)C)NC1=O | MIC90 |  | turbidity | H37Ra |  | >30 µM |
| CCN(CC)CC(O)CNc1c(C)cc(C)c2sc3ccccc3c(=O)c12 | MIC bound |  | BACTEC | H37Rv |  | ≤12.5 µg/mL |
| CC(=O)Nc1ccc(S(=O)(=O)c2ccc(N)cc2)cc1 | MIC |  |  | Strain 1 (MDR) |  | 1 µg/mL |
| C=C(C)[C@@H]1CC[C@@]2(CO)C1C1CCC3[C@@]4(C)CC[C@H](O)C(C)(C)C4CC[C@@]3(C)[C@]1(C)C[C@@H]2O | MIC |  |  | H37Rv |  | >64 µg/mL |
| O=C(NNc1cc(-c2ccccc2)nc2ccc(Cl)cc12)c1ccncc1 | MIC |  |  | Strain 1 (MDR) |  | 9 µg/mL |
| Cc1cc(C(=O)/C=C/c2ccc(Cl)cc2)ccc1O | MIC |  |  | H37Rv |  | >6.25 µg/mL |
| CC(C)=CCC[C@H](C)[C@@H]1CC[C@]2(C)[C@H]3CCC4(OC4(C)C)[C@@H](CCCO)[C@]3(C)CC[C@@]12C | MIC |  |  | H37Rv |  | 4 µg/mL |
| Oc1cc(-c2ccccc2)ccc1Oc1ccc(Cl)cc1Cl | MIC |  |  | H37Rv |  | 27 µM |
| CC(C)[C@H]1CO[C@]23CC[C@H](NCc4cc(C(F)(F)F)nc5cc(F)c(F)cc45)C[C@H]2CCC(=O)N13 | MIC |  | resazurin |  |  | <0.5 µM |
| NNC(=O)c1ccncc1 | MIC90 |  | turbidity | H37Rv |  | 0.12 µM |
| CC(=O)NNc1nc(C)c(C(=O)NNC(=O)C(=O)Nc2ccc([N+](=O)[O-])cc2C#N)s1 | inhibition | 6.25 µg/mL | resazurin | H37Rv |  | 23% |
| COC(=O)c1ccc(NC(=O)c2ccccc2C(=O)O)cc1O | MIC |  |  | H37Rv |  | >2 µg/mL |
| Cc1ccc2nc(-c3ccc(NC(=O)c4ccc(C(=O)Nc5ccc(-c6nc7ccc(C)cc7s6)cc5)cc4)cc3)sc2c1 | inhibition | 6.25 µg/mL | BACTEC | H37Rv |  | 0% |
| COC1=C(C)C(=O)c2cc(=O)n(C)cc2C1=O | MIC |  |  | H37Rv |  | 3.125 µg/mL |
| CO[C@H]1/C=C/O[C@@]2(C)Oc3c(C)c(O)c4c(=O)c(c5oc6cc(N7CCN(CC(C)C)CC7)cc(=O)c6nc5c4c3=C2O)NC(=O)/C(C)=C\C=C\[C@H](C)[C@H](O)[C@@H](C)[C@@H](O)[C@@H](C)[C@H](OC(C)=O)[C@@H]1C | MIC |  |  | TN1811 |  | >32 µg/mL |
| CCc1ccc2ccc3ccc(CC)nc3c2n1 | MIC bound |  | BACTEC | H37Rv |  | ≤12.5 µg/mL |
| COC(=O)C1=C(C)N(c2ccccc2)C(C)=C(C(=O)OC)C1c1ccc(O)c(OC)c1 | MIC |  |  | H37Rv |  | >6.25 µg/mL |
| CC1(C)CC[C@@]2(C)C(=C3CC[C@@H]4[C@@]5(C)CC[C@H](O)C(C)(C)[C@@H]5CC[C@@]4(C)[C@]3(C)C[C@@H]2O)C1 | MIC |  |  | H37Rv |  | >64 µg/mL |

Two numbers with a dash give a range or band. Rows are shuffled and stem from different studies. Blank or dashed fields: not listed here. MIC50, MIC90 and the like: level of inhibition, or share of isolates inhibited. MIC bound comes from a single tested concentration.